A mixed list of measured activities; the numbers were collected in NIAID ChemDB.

Common to all: tests in culture; agent: Candida albicans

Rows are shuffled and stem from different studies. ECn is the concentration giving n% inhibition of infection, replication or growth. MIC50, MIC90 and the like: level of inhibition, or share of isolates inhibited. An empty or dashed field is not shown. Two numbers with a dash give a range or band.

compound | setting | measure | method | strain | result
Cn1cc(-c2ccccc2)c(C(c2ccc3ccccc3c2)n2ccnc2)c1 |  | MIC90 |  | 33 strains | >256 µg/mL
Cc1ccc2nc(-c3ccccc3F)oc2c1 |  | MIC |  |  | 25 µg/mL
CSc1nc(Cl)c(C#N)c(-c2ccc(F)cc2F)n1 |  | MIC |  |  | >100 µg/mL
CCC(C)n1ncn(-c2ccc(N3CCN(c4ccc(OC[C@H]5CO[C@](Cn6cncn6)(c6ccc(Cl)cc6Cl)O5)cc4)CC3)cc2)c1=O |  | Geometric mean MIC |  | 30 isolates | 0.22 µg/mL
C/C(=N\NC(=S)Nc1ccc(C)cc1)c1ccccn1 |  | MIC | broth dilution | ATCC 10231 | 23.9 µM
COc1c2c(c3oc4c(O)cccc4c(=O)c3c1O)C=CC(C)(C)O2 |  | MIC80 |  | ATCC 663.90 | >250 µg/mL
CCC(C)CC(C)CCCCCCCCC(=O)N[C@@H]1C[C@@H](O)[C@@H](O)NC(=O)[C@@H]2[C@@H](O)CCN2C(=O)[C@H]([C@@H](O)CCN)NC(=O)[C@H]([C@H](O)[C@@H](O)c2ccc(O)cc2)NC(=O)[C@@H]2C[C@@H](O)CN2C(=O)[C@H]([C@H](C)O)NC1=O |  | MIC |  |  | ≤0.06 µg/mL
CCSc1nc(Cl)c(C#N)c(-c2ccc(F)cc2F)n1 |  | MIC |  |  | 50 µg/mL
c1ccc(-c2ccc(C(c3c[nH]cc3-c3ccccc3)n3ccnc3)cc2)cc1 |  | MIC90 |  | 33 strains | 32 µg/mL
Cc1c(CN2CCN(C)CC2)cc(-c2ccccc2)n1-c1ccccc1 |  | Mean MIC |  | 20 strains | 255 µg/mL
COc1ccc(C(=O)Nc2cc(C)ccc2O)c(OC)c1 |  | MIC |  |  | 25 µg/mL
COc1ccc(CN(Cc2ccc(-c3ccccc3)cc2)n2ccnc2)cc1 |  | MIC |  |  | 200 µM
Cc1c(Cn2ccnc2)cc(-c2ccc(Cl)cc2)n1-c1ccc(Cl)cc1Cl |  | Mean MIC |  | 20 strains | 53.4 µg/mL
COc1ccc2sc3cc4ccccc4[n+](C)c3c2c1 |  | MIC | resazurin | ATCC 90028 | >20 µg/mL
CC1C(=O)C(C)C(c2ccc(Cl)cc2)N(OCCc2nc3ccccc3o2)C1c1ccc(Cl)cc1 |  | MIC |  |  | 50 µg/mL
CCC(C)CCCCCCCCCCC(=O)N[C@H]1C[C@@H](O)[C@@H](O)NC(=O)C2[C@@H](O)[C@@H](C)CN2C(=O)C(CO)NC(=O)C([C@H](O)C(O)c2ccc(O)cc2)NC(=O)NC(=O)[C@@H]2C[C@@H](O)CN2C(=O)[C@H]([C@@H](C)O)NC1=O |  | MIC |  |  | 0.97 µg/mL
O=C(Nc1ccccc1O)c1ccc([N+](=O)[O-])cc1 |  | MIC |  |  | 25 µg/mL
c1ccc(-c2c[nH]cc2C(c2ccc3ccccc3c2)n2ccnc2)cc1 |  | Mean MIC |  | 33 strains | 21.61 µg/mL
Cc1c(CN(C)C)cc(-c2ccc(Cl)cc2)n1-c1ccc(Cl)cc1 |  | Mean MIC |  | 20 strains | 27.8 µg/mL
Cc1c(Sc2ccccc2)[n+](=O)c2cc(Cl)ccc2n1[O-] |  | MIC |  | Clinical isolate 16 | 15.6 µg/mL
COc1ccccc1CN(Cc1ccc(-c2ccccc2)cc1)n1ccnc1 |  | MFC |  |  | 33 µM
O=c1c2cccc(O)c2oc2cccc(O)c12 |  | MIC80 |  | ATCC 663.90 | 62 µg/mL
CCCCCCCCCCCCCCCC(=O)NC1CC(O)C(O)NC(=O)C2C(O)C(C)CN2C(=O)C(C(O)CC(N)=O)NC(=O)C(C(O)Cc2ccc(O)c(OS(=O)(=O)O)c2)NC(=O)C2CC(O)CN2C(=O)C(C(C)O)NC1=O |  | MIC50 |  |  | 0.008 µg/mL
COc1cc(O)c2c(=O)c3cccc(O)c3oc2c1 |  | MIC80 |  | ATCC 663.90 | >250 µg/mL
COc1ccccc1-c1nc2ccc(C)cc2o1 |  | MIC |  |  | 25 µg/mL
Fc1ccc(CN(Cc2ccc(-c3ccccc3)cc2)n2ccnc2)c(F)c1 |  | MIC |  |  | 200 µM
Cc1ccc2nc(-c3ccccc3[N+](=O)[O-])oc2c1 |  | MIC |  |  | 25 µg/mL
S=C(S)n1nnc2ccccc21 | 48 h | EC50 | broth dilution / absorbance | clinical isolate CDRI | >50 µg/mL
COc1ccc(-c2nc3cc(C)ccc3o2)c(OC)c1 |  | MIC |  |  | 25 µg/mL
Cc1c(CN2CCN(C)CC2)cc(-c2ccccc2)n1-c1ccc(Cl)cc1 |  | Mean MIC |  | 20 strains | 159.5 µg/mL
Clc1ccccc1CN(Cc1ccc(-c2ccccc2)cc1)n1ccnc1 |  | MIC |  |  | 33 µM
COc1ccc(C2C(C)C(=O)C(C)C(c3ccc(OC)cc3)N2OCCc2nc3ccccc3o2)cc1 |  | MIC |  |  | 50 µg/mL
C/C(C=NCCN=C/C(C)=C\c1ccccc1)=C/c1ccccc1 |  | MIC90 | agar diffusion | ATCC 44829 | 110 µM
c1ccc(-c2c[nH]cc2C(c2cccc3ccccc23)n2ccnc2)cc1 |  | Mean MIC |  | 33 strains | 5.65 µg/mL
Clc1ccc(CN(Cc2ccc(-c3ccccc3)cc2)n2ccnc2)c(Cl)c1 |  | MIC |  |  | 6.2 µM
CC(N1CCN(c2ccc(-n3cnn(Cc4ccc(C(F)(F)F)cc4)c3=O)cc2F)CC1)C(O)(Cn1cncn1)c1ccc(F)cc1F |  | MIC90 |  | 6 strains (fluconazole-resistant) | 0.19 µg/mL
CC[C@@H]([C@H](C)O)n1ncn(-c2ccc(N3CCN(c4ccc(OC[C@@H]5CO[C@@](Cn6cncn6)(c6ccc(F)cc6F)C5)cc4)CC3)cc2)c1=O |  | MIC50 |  | 23 strains | 0.03 µg/mL
Cc1c(CN2CCN(C)CC2)cc(-c2ccc(Cl)cc2)n1-c1ccc(F)cc1 |  | Mean MIC |  | 20 strains | 45.3 µg/mL
Cc1ccc(-c2nc3cc(C)ccc3o2)c(C)c1 |  | MIC |  |  | 25 µg/mL
C[n+]1c2cccc(O)c2cc2sc3ccccc3c21 |  | MIC | resazurin | ATCC 90028 | >20 µg/mL
CC1CC2=C(O1)c1ccccc1C(=O)C2=O |  | MIC | broth dilution | 1 | 12 µg/mL
CCOc1cc2c(cc1F)n([O-])c(C)c(S(=O)(=O)c1ccccc1)[n+]2=O |  | MIC |  | Clinical isolate 8 | 15.6 µg/mL
Cn1cc(-c2ccccc2)c(C(c2cccc3ccccc23)n2ccnc2)c1 |  | Mean MIC |  | 33 strains | 20.33 µg/mL
COc1ccc(C(=O)Nc2ccccc2O)cc1 |  | MIC |  |  | 25 µg/mL
Cc1c(CN2CCN(C)CC2)cc(-c2ccc(Cl)cc2)n1-c1ccc(Cl)cc1Cl |  | Mean MIC |  | 20 strains | 50.1 µg/mL
CC[C@@H]([C@H](C)O)n1ncn(-c2ccc(N3CCN(c4ccc(OC[C@@H]5CO[C@@](Cn6cncn6)(c6ccc(F)cc6F)C5)cc4)CC3)cc2)c1=O |  | MIC50 |  | 1992 isolates | 0.03 µg/mL
Cc1c(CN2CCCC2)cc(-c2ccccc2)n1-c1ccc(Cl)cc1 |  | Mean MIC |  | 20 strains | 104.8 µg/mL
Cc1c(S(=O)(=O)c2ccccc2)[n+](=O)c2ccccc2n1[O-] |  | MIC |  | Clinical isolate 9 | 31.25 µg/mL
Cc1c(CN2CCCC2)cc(-c2ccccc2)n1-c1ccc(F)cc1 |  | Mean MIC |  | 20 strains | 113.4 µg/mL
CCCCCCCCCCCCCCCC(=O)N[C@H]1C[C@@H](O)[C@@H](O)NC(=O)[C@@H]2[C@@H](O)[C@@H](C)CN2C(=O)[C@H]([C@@H](C)O)NC(=O)[C@H]([C@H](O)[C@@H](O)c2ccc(O)cc2)NC(=O)[C@@H]2C[C@@H](O)CN2C(=O)[C@H]([C@@H](C)O)NC1=O |  | MIC |  |  | 0.2–6.3 µg/mL
Nc1[nH]c(=O)ncc1F |  | MIC |  | 3532-K31 | 1.56 µg/mL
Nc1ccc(-c2nc3ccccc3o2)cc1 |  | MIC |  |  | 25 µg/mL
CCCCC/C=C\C/C=C\CCCCCCCC(=O)N[C@H]1C[C@@H](O)[C@@H](O)NC(=O)[C@@H]2[C@@H](O)[C@@H](C)CN2C(=O)[C@H]([C@H](C)O)NC(=O)[C@H]([C@H](O)[C@@H](O)c2ccc(O)cc2)NC(=O)[C@@H]2C[C@@H](O)CN2C(=O)[C@H]([C@H](C)O)NC1=O |  | MIC |  |  | 0.625 µg/mL
Nc1ncccc1-c1cc(Cc2ccc(COc3ccccn3)cc2)no1 |  | MIC50 | broth dilution |  | <0.03 µg/mL
C/C(=N\NC(=S)Nc1ccc(F)cc1)c1ccccn1 |  | MIC | broth dilution | ATCC 10231 | 20.6 µM
O=C1CC(c2ccc(Cl)cc2)N(OCCc2nc3ccccc3o2)C(c2ccc(Cl)cc2)C1 |  | MIC |  |  | 50 µg/mL
Cc1c(Sc2ccccc2)[n+](=O)c2cc(C(F)(F)F)ccc2n1[O-] |  | MIC |  | Clinical isolate 17 | 31.25 µg/mL
Clc1cc(Cl)c(OCC#CI)cc1Cl |  | MIC |  |  | 6.25 µg/mL
CCCCCCCCCCCCCCCC[n+]1ccc(N)cc1 |  | MIC | agar diffusion |  | 15.62 µM

For reference, 4 entries again:

compound,setting,measure,method,strain,result
C[n+]1c2cccc(O)c2cc2sc3ccccc3c21,,MIC,resazurin,ATCC 90028,>20 µg/mL
CCCCCCCCCCCCCCCC[n+]1ccc(N)cc1,,MIC,agar diffusion,,15.62 µM
Cc1c(S(=O)(=O)c2ccccc2)[n+](=O)c2ccccc2n1[O-],,MIC,,Clinical isolate 9,31.25 µg/mL
CC(N1CCN(c2ccc(-n3cnn(Cc4ccc(C(F)(F)F)cc4)c3=O)cc2F)CC1)C(O)(Cn1cncn1)c1ccc(F)cc1F,,MIC90,,6 strains (fluconazole-resistant),0.19 µg/mL